A mixed list of measured activities; the numbers were collected in NIAID ChemDB.

Shared fields: tests in culture; agent: HIV-1

ECn: concentration that inhibits the pathogen or its effect by n%. a–b is a range or a potency band. Blank or dashed fields: not listed here. Conditions beyond the fields shown may differ between rows.

structure | changes | strain | read by | cells | measure | conditions | value
CCN(CC)C(=O)[C@@]1(C)Cn2c(=O)c(C(=O)NC)c(O)c3ncc(Cc4ccc(F)cc4)c(c32)O1 | - | IIIB | ATP / luminescence | MT-2 | EC50 | - | 0.0079 µM
Cc1cc(C)c(CS(=O)c2cccc[n+]2[O-])c(C)c1 | - | MN | syncytia | CEM | EC50 | - | 7.6 µg/mL
COc1cccc(-c2c(C)nc3c(N4CC[C@@H](NC(C)=O)C4)cc(C)nn23)c1 | - | - | p24 | H9 | EC50 | - | >1 µM
CCOCn1c(Cc2cc(C)cc(C)c2)c(CC)c(=O)[nH]c1=O | RT-K103N | IIIB TIBO R82913-resistant (RT K103N) | syncytia | CEM | EC50 | - | 0.15 µM
CC1=C(C(=O)Nc2cc(C(=O)OC(C)C)c(C)cc2F)SCCO1 | RT-L100I | TIBO-resistant (RT L100I) | syncytia | CEM | EC50 | - | >10 µg/mL
Cc1cc(/C=C/C#N)cc(C)c1Oc1nc(NC2CCN(Cc3cccnc3)CC2)nc2ccsc12 | NNRTI-resistant (RT L100I) | IIIB | MTT | MT-4 | EC50 | - | 0.00446 µM
COc1cc(OC)cc(C(C)(O)c2c(C)c(=O)[nH]c(=O)n2COCc2ccccc2)c1 | - | IIIB | MTT | MT-4 | EC50 | - | >144 µM
CCN1c2ncc(CCOc3ccc(-c4ccc(C(=O)O)c[n+]4[O-])cc3C)cc2C(=O)N(C)c2cccnc21 | - | IIIB | p24 | C8166 | EC50 | - | 0.01–0.05 µM
CCc1c(Sc2cc(C)cc(C)c2)n(COCc2ccccc2)c(=O)[nH]c1=O | RT-Y181C | IIIB | syncytia | CEM | EC50 | - | 0.08 µM
COc1ccccc1C(C)c1c(C)c(=O)[nH]c(=O)n1COCc1ccccc1 | - | IIIB | MTT | MT-4 | EC50 | - | >329 µM
CCc1c(Sc2cc(C)cc(C)c2)n(COCc2ccccc2)c(=S)[nH]c1=O | RT-Y188H | IIIB | syncytia | CEM | EC50 | - | 0.97 µM
COc1ccc(-c2c(C)nc3c(N4CC[C@@H](NC(=O)C5CCCCC5)C4)cc(C)nn23)cc1 | - | - | p24 | H9 | EC50 | - | 0.7 µM
CC(=O)c1c(C)nc(-c2ccccc2)nc1NC(=O)c1ccccc1 | - | O-MVP5180 | GFP / fluorescence | HeLa | EC50 | - | 5 µM
CCN1c2ncc(CCOc3ccc(-c4ccn(CC(=O)O)n4)cc3)cc2C(=O)N(C)c2cccnc21 | RT-K103N Y181C | - | p24 | C8166 | EC50 | - | >0.05 µM
CN1c2ccccc2C2C1C=CC(=O)N2c1ccc(-c2noc(=O)n2CC#N)cc1 | - | LAI | cytopathic effect / MTT | MT-4 | EC50 | - | 1–32 µM
CC(=O)N[C@@H]1CCN(c2cc(C)nn3c(-c4ccc(O)cc4)c(C)nc23)C1 | - | - | p24 | H9 | EC50 | - | <1 µM
CC(C)=CCOc1cc(NC(=S)c2ccoc2C)ccc1Cl | - | RF | cytopathic effect / XTT | CEM + CEM-SS | EC50 | - | 0.02 µM
COc1ccc(-c2c(C)sc3c(N4CC[C@@H](NC(C)=O)C4)nc(C)nc23)cc1OC | - | - | p24 | H9 | EC50 | - | >100 µM
N#CC1=CC2C(c3ccccc3N2CCN2CCOCC2)N(c2ccc([N+](=O)[O-])cc2)C1=O | - | LAI | cytopathic effect / MTT | MT-4 | EC50 | - | <1 µM
CNC(=O)c1c(O)c2ncc(Cc3ccc(F)cc3)c3c2n(c1=O)C[C@@H](C(=O)NC(C)(C)CO)O3 | - | IIIB | ATP / luminescence | MT-2 | EC50 | - | 0.012 µM
C=CCCN1c2ccccc2C2C1C=C(C#N)C(=O)N2c1ccc([N+](=O)[O-])cc1 | - | LAI | cytopathic effect / MTT | MT-4 | EC50 | - | <1 µM
Cc1cc(C)cc(Cc2c(I)c(=O)[nH]c(=O)n2COCc2ccccc2)c1 | K103N/Y181C | A17 | p24 / ELISA | TZM-bl | EC50 | - | 0.122 µM
O=C(O)c1cc(-n2cccc2)ccc1Cl | - | 93IN101 R5 CLADE C | luciferase / cell fusion | PBMC/5.25M7 | EC50 | - | 82.25 µM
CCCCCOC(=O)c1cc(NC(=O)C2=C(C)OCCS2)ccc1Cl | RT-E138K | TSAO-resistant (RT E138K) | syncytia | CEM | EC50 | - | 9 µg/mL
Clc1cccc(Nn2cnc3c2CCCC3)c1 | - | IIIB | cytopathic effect / MTT | MT-4 | EC50 | - | >67.29 µM
CCOC(=O)c1cc(NC(=O)C2=C(C)OCCS2)ccc1Cl | RT-E138K | TSAO-resistant (RT E138K) | syncytia | CEM | EC50 | - | 6.5 µg/mL
CCN1c2ncc(CCOc3ccc(-c4cc(C(=O)O)on4)cc3C)cc2C(=O)N(C)c2cccnc21 | RT-K103N Y181C | - | p24 | C8166 | EC50 | - | >0.05 µM
CCOCn1c(Sc2ccccc2)c(CC)c(=O)[nH]c1=S | RT-E138K | IIIB | syncytia | CEM | EC50 | - | 0.13 µM
CCOC(=O)c1ccc(CN2CCC(Nc3nc(Oc4c(C)cc(C#N)cc4C)c4ccsc4n3)CC2)cc1 | NNRTI-resistant (RT F227L V106A) | IIIB | MTT | MT-4 | EC50 | - | 3.68 µM
COc1ccc2c(c1)C1=C(CC2)C(=O)NCCN1CCCC(C)C | - | - | p24 | OM-10.1 | EC50 | - | 1.4 µM
N#Cc1cc(Cl)cc(Oc2c(Br)ccc(CC(=O)Nc3ccc(S(N)(=O)=O)cc3Cl)c2F)c1 | E138K/Y181I | - | - | MT-4 | EC50 | - | 0.002 µM
COc1ccc(-c2c(C)nc3c(N4CC[C@@H](NC(=O)c5ccccc5)C4)cc(C)nn23)cc1OC | - | - | p24 | H9 | EC50 | - | <1 µM
N#CC1=CC2C(c3ccccc3N2CCCN2CCCCC2)N(c2ccc([N+](=O)[O-])cc2)C1=O | - | LAI | cytopathic effect / MTT | MT-4 | EC50 | - | <1 µM
O=C1Nc2ccc(Cl)cc2[C@@](C#CC2CC2)(C(F)(F)F)N1 | RT-Y188L | - | - | - | EC90 | - | ~0.098 µM
Cc1cc(C)cc(Nn2cnc(C)c2-c2ccccc2)c1 | - | NL4-3 | cytopathic effect / MTT | MT-4 | EC50 | - | 10.99 µM
CN(C)C=Nc1ccc(N2C(=O)C(C#N)=CC3C2c2ccccc2N3C)cc1 | - | LAI | cytopathic effect / MTT | MT-4 | EC50 | - | 1–32 µM
CC(C)CN(C[C@@H](O)[C@H](Cc1ccccc1)NC(=O)O[C@H]1CO[C@H]2OCC[C@H]21)S(=O)(=O)c1ccc2c(c1)OCO2 | - | 97ZA003 | p24 | PHA-PBM | EC50 | - | 0.0005 µM
Cc1cc(/C=C/C#N)cc(C)c1Oc1nc(NC2CCN(Cc3ccccc3Cl)CC2)nc2ccsc12 | - | RES056 | MTT | MT-4 | EC50 | - | 0.165 µM
CC(C)OC(=O)OCOP(=O)(CO[C@H](C)Cn1cnc2c(N)ncnc21)OCOC(=O)OC(C)C | Y181C | - | p24 / ELISA | C8166 | EC50 | - | 0.05662 µM
Cc1ccc(C)c(CS(=O)c2ccc(Cl)c[n+]2[O-])c1 | - | MN | syncytia | CEM | EC50 | - | 7.6 µg/mL
CCOCn1c(Sc2cc(C)cc(C)c2)c(CC)c(=O)[nH]c1=O | Nevirapine resistant (RT Y181C) | IIIB | syncytia | CEM | EC50 | - | 0.09 µM
Cc1ccc(-c2ccc(NC(=O)N3CCC4(CCO4)CC3)cc2)cc1 | - | - | luminescence | TZM-bl | EC50 | pseudotyped | >30 µM
Cc1cc(C#N)cc(C)c1Oc1nc(NC2CCN(Cc3ccc(S(N)(=O)=O)cc3)CC2C(=O)O)nc2ccsc12 | NNRTI-resistant (RT Y188L) | IIIB | MTT | MT-4 | EC50 | - | 2.97 µM
CCc1c(Sc2cc(C)cc(C)c2)n(COCCO)c(=S)[nH]c1=O | RT-Y181C | IIIB | syncytia | CEM | EC50 | - | 0.55 µM
CC1(C)CC=C(c2cn(-c3nccc(C(=O)NC4CCC(N5CC6CCC(C5)O6)CC4)n3)c3ccc(F)c([C@H](OC(C)(C)C)C(=O)O)c23)CC1 | T97A/Y143R | NL4-3 | luminescence | MT-4 | EC50 | - | 0.0044 µM
Nc1ccn([C@H]2CC[C@@H](CO)O2)c(=O)n1 | D36G | NL4-3 | β-galactosidase | - | EC50 | - | 0.392 µM
C[C@H]1CO[C@@H]2Cn3cc(C(=O)NCc4ccc(F)cc4F)c(=O)c(O)c3C(=O)N12 | M50I/R263K | NL4-3 | RT activity | CBMC | EC50 | - | 0.0011 µM
CCc1c(Cc2cc(C)cc(C)c2)n(COCCO)c(=O)[nH]c1=O | Nevirapine resistant (RT Y181C) | IIIB | syncytia | CEM | EC50 | - | 1.5 µM
COc1ccc2c(c1)C1=C(CC2)C(=O)N[C@@H]2CCCC[C@@H]2N1 | - | - | p24 | OM-10.1 | EC50 | - | 1 µM
COP(=O)(c1cc(C)cc(CCC#N)c1)c1c(C(N)=O)[nH]c2ccc(Cl)cc12 | K103N/Y181C | BH10 | cytopathic effect | MT-4 | EC50 | - | 0.0066 µM
CCC(=O)Oc1ccc(NC(=O)C2=C(C)OCCS2)cc1C(=O)OC(C)C | RT-V106A | Nevirapine-resistant (RT V106A) | syncytia | CEM | EC50 | - | >10 µg/mL
Cc1nc2ccccc2c(-c2cc(F)c3c(c2C)CCCO3)c1[C@H](OC(C)(C)C)C(=O)O | G140S/Q148R | NL4-3 | luminescence | MT-4 | EC50 | - | 0.017 µM
N#CC1=CC2Nc3ccccc3C2N(c2ccc([N+](=O)[O-])cc2)C1=O | - | N119 | GFP / fluorescence | HeLa | EC50 | - | 0.3 µM
CC1=C(C(=O)Nc2cc(C(=O)OC(C)C)c(F)cc2F)SCCO1 | RT-V106A | Nevirapine-resistant (RT V106A) | syncytia | CEM | EC50 | - | >10 µg/mL
COc1ccc(-c2c(C)nc3c(N4CCN(C(=O)OC(C)(C)C)CC4)cc(C)nn23)cc1OC | - | - | p24 | H9 | EC50 | - | 2 µM
O=C1NCCN(Cc2ccccc2)c2c1sc1ccc([N+](=O)[O-])cc21 | - | - | p24 | OM-10.1 | EC50 | - | 0.04 µM
Cn1c2ccccc2c2c1cc(C#N)c(=O)n2-c1ccc([N+](=O)[O-])cc1 | RT-V106A F227L | G | cytopathic effect / MTT | MT-4 | EC50 | - | 0.06 µM
CC(C)c1c(Sc2ccccc2)n(COCc2ccccc2)c(=S)[nH]c1=O | RT-K103N | IIIB TIBO R82913-resistant (RT K103N) | syncytia | CEM | EC50 | - | 1.5 µM
COc1ccc2c(c1)C1=C(CC2)C(=O)NCCN1CCC(C)C | - | - | p24 | OM-10.1 | EC50 | - | 1.8 µM
CCC(O)(c1ccccc1C)c1c(C)c(=O)[nH]c(=O)n1COCc1ccccc1 | - | IIIB | MTT | MT-4 | EC50 | - | >163 µM
CC1=C(C(=O)Nc2ccc(Cl)c(C(=O)OC3CCCC3)c2)SCCO1 | RT-E138K | TSAO-resistant (RT E138K) | syncytia | CEM | EC50 | - | 0.55 µg/mL
Cc1ccc(C)c(CS(=O)(=O)c2cccc[n+]2[O-])c1 | - | IIIB | syncytia | CEM | EC50 | - | 5.3 µg/mL
C=C(c1ccccc1)c1c(C)c(=O)[nH]c(=O)n1COCc1ccccc1 | E138K | IIIB | MTT | MT-4 | EC50 | - | 37.96 µM
N#Cc1cc2[nH]c3ccccc3c2n(-c2ccc([N+](=O)[O-])cc2)c1=O | RT-K103N | B | cytopathic effect / MTT | MT-4 | EC50 | - | 1.26 µM
COc1ccc2sc3c(c2c1)SCC(C)(C)/C3=N\O | - | - | p24 | OM-10.1 | EC50 | - | 0.5 µM
Cc1cc(/C=C/C#N)cc(C)c1Oc1nc(NC2CCN(Cc3ccccc3F)CC2)nc2ccsc12 | NNRTI-resistant (RT K103N) | IIIB | MTT | MT-4 | EC50 | - | 0.00688 µM
CNC(=O)[C@]1(C)Cn2c(=O)c(C(=O)NCCOC)c(O)c3ncc(Cc4ccc(F)cc4)c(c32)O1 | - | IIIB | ATP / luminescence | MT-2 | EC50 | - | 0.0147 µM
CC1=C(C(=O)Nc2ccc(F)c(C(=O)OC(C)C)c2)SCCO1 | RT-E138K | TSAO-resistant (RT E138K) | syncytia | CEM | EC50 | - | >10 µg/mL
COc1ccc2c(c1)C1=C(CC2)C(=O)NCCN1Cc1ccc(Cl)cc1 | - | - | p24 | OM-10.1 | EC50 | - | 0.5 µM
Cc1ccc(CN2CCC(Nc3nc(Oc4c(C)cc(/C=C/C#N)cc4C)c4sccc4n3)CC2)cc1 | - | RES056 | MTT | MT-4 | EC50 | - | 0.146 µM
CC(C)c1c(Sc2ccccc2)n(COCCO)c(=O)[nH]c1=O | RT-L100I | IIIB (TIBO 82150) (RT-L100I) | syncytia | CEM | EC50 | - | 0.28 µM
O=C1Nc2ccc(F)c(F)c2[C@@](C#CC2CC2)(C(F)(F)F)N1 | RT-G190S | - | - | - | EC90 | - | ~0.053 µM
Cc1ccc(Nn2c(-c3ccccc3)c(C)[nH]c2=S)cc1Cl | RT-K103N Y181C | SO561945 (RT K103N Y181C) | cytopathic effect / MTT | MT-4 | EC50 | - | >44.29 µM
CCCC1=C(C(=O)Nc2ccc(Cl)c(C(=O)OC)c2)SCCO1 | RT-Y181C | PYR-resistant (RT Y181C) | syncytia | CEM | EC50 | - | >10 µg/mL
CC(C)=CCOc1cc(NC(=S)c2ccsc2C)ccc1Cl | - | 4xAZT | cytopathic effect / XTT | CEM + CEM-SS | EC50 | - | 0.006 µM
CCN1c2ncc(CCOc3ccc(C(=O)Nc4ccc(C(=O)O)cn4)cc3C)cc2C(=O)N(C)c2cccnc21 | RT-K103N Y181C | - | p24 | C8166 | EC50 | - | 0.01–0.05 µM
CNC(=O)c1c(O)c2ncc(Cc3ccc(F)cc3)c3c2n(c1=O)C[C@](C)(CO)O3 | - | IIIB | ATP / luminescence | MT-2 | EC50 | - | 0.005 µM
S=c1[nH]c(-c2ccccc2)c(-c2ccccc2)n1Nc1cccc(Cl)c1 | RT-K103N Y181C | SO561945 (RT K103N Y181C) | cytopathic effect / MTT | MT-4 | EC50 | - | >36.31 µM
CCC1=C(C(=O)Nc2ccc(Cl)c(C(=O)OCC(C)C)c2)SCCO1 | RT-Y181C | PYR-resistant (RT Y181C) | syncytia | CEM | EC50 | - | 0.6 µg/mL